Measured values from several laboratories, pooled; numbers as filed in NIAID ChemDB.

All rows: growth or infection tests; organism: Mycobacterium tuberculosis

Blank or dashed fields: not listed here.

compound,read by,strain,changes,tested at,read-out,result
CCCCCCCCCCOc1ccc(NC(=O)OCCN2CCCCC2)cc1,,My 331/88,,,MIC,8 µM
CO[C@H]1/C=C/O[C@@]2(C)Oc3c(C)c(O)c4c(O)c(c(/C=N/N5CCN(C6CCCC6)CC5)c(O)c4c3C2=O)NC(=O)/C(C)=C\C=C\[C@H](C)[C@H](O)[C@@H](C)[C@@H](O)[C@@H](C)[C@H](O)[C@@H]1C,,Isolate 900216 drug-susceptible,,,MIC,0.125 µg/mL
NNC(=O)[C@H](Cc1cnc[nH]1)NC(=O)OCc1ccccc1,BACTEC,H37Rv,,12.5 µg/mL,inhibition,-5%
CCCCCCCCOc1ccc(NC(=O)OCCN2CCCCCC2)cc1,,My 331/88,,,MIC,4 µM
CCCCCSc1ncnc2nc[nH]c12,,H37Rv,,,MIC90,>6.25 µg/mL
CC1CN(c2cc3c(cc2F)c(=O)c(C(=O)O)cn3-c2ccc(F)cc2F)CCN1,,ATCC 35822,,,MIC,1 µg/mL
CO[C@H]1/C=C/O[C@@]2(C)Oc3c(C)c(O)c4c(O)c(c5c(c4c3C2=O)NC2(CCN(CC(C)C)CC2)N=5)=NC(=O)/C(C)=C\C=C\[C@H](C)[C@H](O)[C@@H](C)[C@@H](O)[C@@H](C)[C@H](OC(C)=O)[C@@H]1C,,S-6M (susceptible),,,MIC,0.05 µg/mL
Nc1sc(-c2ccccc2)cc1C(=O)O,resazurin,H37Rv,,,EC50,28.29 µg/mL
C=C1CC(=O)N(CCCCCCCC)C1=O,,H37Rv,,,MIC,≤20 µg/mL
CC[C@H]1OC(=O)[C@H](C)[C@@H](O[C@H]2C[C@@](C)(OC)[C@@H](O)[C@H](C)O2)[C@H](C)[C@@H](O[C@@H]2O[C@H](C)C[C@H](N(C)C)[C@H]2O)[C@](C)(OC)C[C@@H](C)C(=O)[C@H](C)[C@@H](O)[C@]1(C)O,,ATCC 35822,,,MBC,>8 µg/mL
O=C(CCCCCCCCC(=O)NN1C(=O)/C(=C\c2ccc(O)c(O)c2)SC1c1c(O)ccc2ccccc12)NN1C(=O)/C(=C\c2ccc(O)c(O)c2)SC1c1c(O)ccc2ccccc12,resazurin,H37Rv,,,MIC bound,>6.25 µg/mL
CC(C)CC(C)NCCNC[C@]1(C)CCC[C@]2(C)c3ccc(C(C)C)cc3CC[C@@H]12,,,,,MIC,25 µM
NNC(=O)c1ccncc1,,Strain 474,,,MIC,8 µg/mL
NNC(=O)c1ccncc1,,MDR-2037 (MDR),,,MIC,3.2 µg/mL
CCC[C@@H]1C[C@@H](C(=O)N[C@@H]([C@H]2O[C@H](SC)[C@H](O)[C@@H](O)[C@H]2O)[C@@H](C)O)N(C)C1,,H37Rv,,,Median MIC,>256 µg/mL
CN1c2ccccc2S(=O)(=O)n2c(COc3ccc(Cl)cc3)nnc21,resazurin,H37Rv,,6.25 µg/mL,inhibition,-7%
CN(C)c1ccc(O)c2c1C[C@H]1C[C@H]3[C@H](N(C)C)C(=O)C(C(N)=O)=C(O)[C@@]3(O)C(=O)C1=C2O,,H37Ra,,,Mean MIC,0.88 µg/mL
CC(=O)NC[C@H]1CN(c2ccc(N3CCOCC3)c(F)c2)C(=O)O1,,AZD5847-resistant,T460C Cys154Arg,,MIC,16 µg/mL
NC(N)=NC(N)=Nc1ccc(Cl)c(Cl)c1,BACTEC,H37Rv,,,MIC bound,>6.25 µg/mL
CN[C@@H]1[C@H](O[C@H]2[C@H](O[C@H]3[C@H](O)[C@@H](O)[C@H](N=C(N)N)[C@@H](O)[C@@H]3N=C(N)N)O[C@@H](C)[C@]2(O)C=O)O[C@@H](CO)[C@H](O)[C@H]1O,,H37Ra,,,Median MIC,0.94 µg/mL
CC1(C)[C@H]2CC[C@@H](CNCCNCCCN3CCCC3=O)[C@@H]1C2,,,,,MIC,50 µM
COc1ccccc1Sc1ncccn1,,H37Ra,,,MIC,>12.8 µg/mL
CO[C@H]1/C=C/O[C@@]2(C)Oc3c(C)c(O)c4c(O)c(c(/C=N/N5CCN(C)CC5)c(O)c4c3C2=O)NC(=O)/C(C)=C\C=C\[C@H](C)[C@H](O)[C@@H](C)[C@@H](O)[C@@H](C)[C@H](OC(C)=O)[C@@H]1C,,50194,,,MIC,≥2 µg/mL
NC(=O)c1c[n+]([O-])ccn1,BACTEC,H37Rv,,12.5 µg/mL,inhibition,0%
CC(C)N=c1cc2n(-c3ccc(Cl)cc3)c3ccccc3nc-2cc1Nc1ccc(Cl)cc1,,H37Rv,,,Median MIC,0.23 µg/mL
Nc1nc(Cl)cc(Nc2ccc(CCO)cc2)n1,BACTEC,H37Rv,,12.5 µg/mL,inhibition,46%
CO[C@H]1/C=C/O[C@@]2(C)Oc3c(C)c(O)c4c(O)c(c(/C=N/N5CCN(C/C=C/c6ccccc6)CC5)c(O)c4c3C2=O)NC(=O)/C(C)=C\C=C\[C@H](C)[C@H](O)[C@@H](C)[C@@H](O)[C@@H](C)[C@H](OC(C)=O)[C@@H]1C,,MTB11 (EMB-R),,,MIC,≤0.06 µg/mL
CC1COc2c(N3CCN(C)CC3)c(F)cc3c(=O)c(C(=O)O)cn1c23,broth dilution,H37Rv (ATCC 27294),,,MIC,0.5–1 µM
CCCCCCCCCN1C(=O)CCCC1=O,,H37Rv,,,MIC,≤20 µg/mL
COC(=O)c1c(C(N)=O)c(C)n(NC(N)=O)c1C,BACTEC,H37Rv,,12.5 µg/mL,inhibition,0%
N#Cc1c(NC(=O)c2c(F)c(F)c(F)c(F)c2F)sc2c1CCOC2,turbidity,H37Rv,katG Y155 truncation mutant,,EC50,5.6 µM
CCCCCCOc1ccc(NC(=O)OCCN2CCCCC2)cc1,,My 331/88,,,MIC,32 µM
C=CC1CN2CCC1CC2C(O)c1ccnc2ccc(OC)cc12.CC1C2CCC(C2)C1C(=O)O,resazurin,H37Rv,,6.25 µg/mL,inhibition,2%
NC1CCN(c2nc3c(cc2F)c(=O)c(C(=O)O)cn3-c2ccc(F)cc2F)C1,,ATCC 35820,,,MBC,>8 µg/mL
COc1ccc(NC(=O)C(=O)NNC(=O)c2sc(NNC(C)=O)nc2C)c([N+](=O)[O-])c1,resazurin,H37Rv,,6.25 µg/mL,inhibition,16%
CCOC(=O)c1c(NC(=O)c2c(F)c(F)c(F)c(F)c2F)sc2c1CCOC2,turbidity,H37Rv,gyrA mutant (D94N),,EC90,0.35 µM
C[C@@H]1[C@H]2C[C@@H](C[C@H]1NCCNCCC(c1ccccc1)c1ccccc1)C2(C)C,,,,,MIC,12.5 µM
NCC[C@H](O)C(=O)N[C@@H]1C[C@H](N)[C@@H](O[C@H]2O[C@H](CN)[C@@H](O)[C@H](O)[C@H]2O)[C@H](O)[C@H]1O[C@H]1O[C@H](CO)[C@@H](O)[C@H](N)[C@H]1O,broth dilution / resazurin,MDR24,,,MIC,2 µg/mL
CCOC(=O)c1c(NC(=O)c2c(F)c(F)c(F)c(F)c2F)sc2c1CCNC2=O,turbidity,H37Rv,rpoB S522L mutant,,EC50,0.35 µM
CO[C@H]1/C=C/O[C@@]2(C)Oc3c(C)c(O)c4c(O)c(c(/C=N/N5CCN(C/C=C/c6ccccc6)CC5)c(O)c4c3C2=O)NC(=O)/C(C)=C\C=C\[C@H](C)[C@H](O)[C@@H](C)[C@@H](O)[C@@H](C)[C@H](OC(C)=O)[C@@H]1C,,9 (rifampin-resistant),,,MBC,0.1 µg/mL
CCNC(=O)c1c(NC(=O)c2c(F)c(F)c(F)c(F)c2F)sc2c1CCN(CC)C2,turbidity,H37Rv,katG Y155 truncation mutant,,EC90,11 µM
CO[C@H]1/C=C/O[C@@]2(C)Oc3c(C)c(O)c4c(=O)c(c5oc6cc(N7CCN(C(C)C)CC7)cc(=O)c6nc5c4c3=C2O)NC(=O)/C(C)=C\C=C\[C@H](C)[C@H](O)[C@@H](C)[C@@H](O)[C@@H](C)[C@H](OC(C)=O)[C@@H]1C,,2983 (rifampin-sensitive),,,MBC,0.012 µg/mL
NNC(=O)c1ccncc1,,linezolid resistant 8.7,T460C Cys154Arg,,MIC,0.125 µg/mL
COc1ccc(C2=C(c3ccccc3)c3c(OC)cc(OC)cc3OC2)cc1,BACTEC,H37Rv,,,MIC bound,>12.5 µg/mL
COc1ccccc1CSc1ncnc2nc[nH]c12,,H37Rv,,,MIC90,>6.25 µg/mL
COc1ccc(CCc2cc(OC)c3ccccc3n2)cc1OC,,MT7,,,MIC,25 µg/mL
CCCCCCCCCN1C(=O)CC(SCCNC(=O)C2CCCC2)C1=O,,H37Rv,,,MIC,≤20 µg/mL
Cc1ccc(NC(=O)c2cc(-c3ccccc3)sc2N)cc1,resazurin,H37Rv,,,MIC,>100 µg/mL
Cc1cccc(Sc2nc(Cl)nc3nc[nH]c23)c1,,H37Rv,,,MIC90,>6.25 µg/mL
Nc1nc2ncc(NCc3ccc(C(=O)NC(CCC(=O)O)C(=O)O)cc3)nc2c(=O)[nH]1,BACTEC,H37Rv,,,MIC bound,>12.5 µg/mL
c1ccc(CSc2ccncc2)cc1,,H37Ra,,,MIC,>12.8 µg/mL
NCC[C@H](O)C(=O)N[C@@H]1C[C@H](N)[C@@H](O[C@H]2O[C@H](CN)[C@@H](O)[C@H](O)[C@H]2O)[C@H](O)[C@H]1O[C@H]1O[C@H](CO)[C@@H](O)[C@H](N)[C@H]1O,,H37Ra,,,Mean MIC,0.59 µg/mL
O=C(CCCCC(=O)N/N=C/c1ccco1)N/N=C/c1ccco1,BACTEC,H37Rv,,,MIC bound,>12.5 µg/mL
C[C@H]1COc2c(N3CCN(C)CC3)c(F)cc3c(=O)c(C(=O)O)cn1c23,,Strain 35,,,MIC,16 µg/mL
COc1cc2c(c(OC)c1OC)CCC/C2=N\NC(N)=S,resazurin,H37Rv,,,MIC bound,>6.25 µg/mL
NNC(=O)c1ccncc1,,98596,,,MIC,≥0.2 µg/mL
CCC1=C2C(=O)c3ccccc3C2=C(C)S(=O)(=O)O1,BACTEC,H37Rv,,,MIC bound,>12.5 µg/mL
NNC(=O)c1ccncc1,,PR819,,,MIC,20 µg/mL
CCN1CCc2c(sc(NC(=O)c3c(F)c(F)c(F)c(F)c3F)c2C#N)C1,turbidity,H37Rv,katG Y155 truncation mutant,,EC50,10 µM
O=C(CNC(=O)OCc1ccccc1)NC(CO)C(=O)O,BACTEC,H37Rv,,12.8 µg/mL,inhibition,10%
CO[C@H]1/C=C/O[C@@]2(C)Oc3c(C)c(O)c4c(=O)c(c5oc6cc(N7CCN(CC(C)C)CC7)cc(=O)c6nc5c4c3=C2O)NC(=O)/C(C)=C\C=C\[C@H](C)[C@H](O)[C@@H](C)[C@@H](O)[C@@H](C)[C@H](OC(C)=O)[C@@H]1C,,TN644,,,MIC,16 µg/mL
Cc1cc(S(=O)(=O)Nc2nc(N)n(-c3ccccn3)n2)c(S)cc1Cl,BACTEC,H37Rv,,12.5 µg/mL,inhibition,0%
CCOC(=O)c1c(NC(C)=O)sc2c1CCN(C(=O)OCC)C2,resazurin,H37Rv,,,MIC,>100 µg/mL
CC[C@H]1OC(=O)[C@H](C)[C@@H](O[C@H]2C[C@@](C)(OC)[C@@H](O)[C@H](C)O2)[C@H](C)[C@@H](O[C@@H]2O[C@H](C)C[C@H](N(C)C)[C@H]2O)[C@](C)(O)C[C@@H](C)C(=O)[C@H](C)[C@@H](O)[C@]1(C)O,,ATCC 35822,,,MBC,>8 µg/mL
C[C@H]1C=C[C@H]([C@H](N)C(=O)O)O1,BACTEC,H37Rv,,,MIC bound,>12.8 µg/mL
CO[C@H]1/C=C/O[C@@]2(C)Oc3c(C)c(O)c4c(O)c(c5c(c4c3C2=O)NC2(CCN(CC(C)C)CC2)N=5)=NC(=O)/C(C)=C\C=C\[C@H](C)[C@H](O)[C@@H](C)[C@@H](O)[C@@H](C)[C@H](OC(C)=O)[C@@H]1C,,H37Rv,,,Mean MIC,0.038 µg/mL
CSc1nc2c(N)ncnc2n1C,BACTEC,H37Rv,,12.5 µg/mL,inhibition,0%
COc1ccc(Sc2ncnc3nc[nH]c23)c(OC)c1,,H37Rv,,6.25 µg/mL,inhibition,33%
CCOc1cccc(NC(=O)OCCN2CCCCC2)c1,,My 331/88,,,MIC,600 µM
O=C(O)C1C2CCC(O2)C1C(=O)Nc1nc2cc3ccccc3cc2s1,resazurin,H37Rv,,,MIC bound,>6.25 µg/mL
CCCCC(CC)CN1CN(CC(CC)CCCC)CC(C)(NCCNCCCCO)C1,,,,,MIC,12.5 µM
CCCCCCCCCCNC1CC(=O)N(CCCCCCCCCC)C1=O,,Clinical isolate (isoniazid-resistant),,,MIC,≤20 µg/mL
CC1COc2c(N3CCN(C)CC3)c(F)cc3c(=O)c(C(=O)O)cn1c23,,MDR,,,MBC90,8 µg/mL
NC(=O)c1cnccn1,,Isolate 9811 monodrug-resistant,,,MIC,>300 µg/mL
CN1c2ccccc2CCC1CCc1ccc2c(c1)OCO2,,MT4,,,MIC,>100 µg/mL
NC(=O)Cn1c(=O)oc2cc(C(=O)CN3CCOCC3)ccc21,resazurin,H37Rv,,6.25 µg/mL,inhibition,31%
COc1ccc(NC(=O)OCCN(C)C)cc1,,My 331/88,,,MIC,>1000 µM

Percent inhibition refers to the dose given; in toxicity tests it is the harm to the cells. MIC50, MIC90 and the like: level of inhibition, or share of isolates inhibited. ECn: concentration that inhibits the pathogen or its effect by n%. a–b is a range or a potency band. MIC bound: limit read from a one-dose screen. Conditions beyond the fields shown may differ between rows.